A mixed list of measured activities; the numbers were collected in NIAID ChemDB.

All rows: whole-cell or culture tests; organism: Mycobacterium tuberculosis

Rows are shuffled and stem from different studies. Inhibition is in % at the dose shown (toxicity tests: loss of growth or viability). MIC bound: limit read from a one-dose screen. MIC50, MIC90 and the like: level of inhibition, or share of isolates inhibited. Fold resistance: result on the changed form divided by that on wild type. ECn: concentration that inhibits the pathogen or its effect by n%. Blank or dashed fields: not listed here.

SMILES,strain,changes,cell line,read by,measure,dose,result
Oc1cccc(O)c1O,H37Rv,,,,MIC,,100 µg/mL
Cc1ccc(OC/C(N)=N\NC(=O)c2ccncc2)cc1,16 isolates,,,,MIC50,,3.12 µg/mL
Oc1ccc2c(oc3ccccc32)c1O,H37Rv,,,,MIC,,25 µg/mL
COc1ccc2ncc(COC(=O)NC3CCCCC3)c(COC(=O)NC3CCCCC3)c2c1,H37Rv,,,resazurin,MIC,,6.25 µg/mL
CC[C@@H](CO)NCCN[C@@H](CC)CO,H37Rv,,,resazurin,MIC,,1.25 µg/mL
CCOC(=O)c1ccc2nc(-c3ccccc3)[nH]c2c1,H37Rv,,,resazurin / fluorescence,EC50,,>100 µM
CC(NNC(=O)c1ccncc1)c1ccc(F)cc1,Thiacetazone-resistant,,,,MIC,,>50 µg/mL
CC(C)CC(NC(=O)OC(C)(C)C)C(=O)NC(Cc1c[nH]c2ccccc12)C(=O)NN,H37Rv,,,BACTEC,inhibition,12.5 µg/mL,10%
CCOc1cc(/C=N/N=c2\scc(-c3cc4ccccc4oc3=O)n2C2CCCCC2)ccc1O,H37Rv,,,,MIC,,<12.5 µg/mL
C[C@]1(COc2ccc(N3CCN(C/C=C/c4c(Cl)cc(Cl)cc4Cl)CC3)cc2)Cn2cc([N+](=O)[O-])nc2O1,H37Rv,,,,MIC,,0.006 µg/mL
CC(NNC(=O)c1ccncc1)c1ccc(Cl)c(Cl)c1,H37Rv,,,,MBC,,25 µg/mL
C=C[C@]1(C)C=C2CC[C@@H]3[C@](C)(CCC[C@@]3(C)C(=O)O)[C@H]2CC1,H37Rv,,,BACTEC,MIC,,128 µg/mL
C[C@]1(COc2ccc(N3CCN(C/C=C/c4ccc(Cl)c(Cl)c4)CC3)cc2)Cn2cc([N+](=O)[O-])nc2O1,H37Rv,,,,MIC,,0.012 µg/mL
CCNCc1c(C)nc2ccc(N(C)C)cc2c1Cl,H37Rv,,,BACTEC,inhibition,12.5 µg/mL,61%
Nc1cccc2c1oc1c(N)cccc12,H37Rv,,,,MIC,,>100 µg/mL
CCCCCCCCCCC[C@@H]1CCC[C@H](C)N1,H37Rv,,,BACTEC,MIC,,6.25 µg/mL
Nc1ccc(OCC(O)CO)cc1,H37Rv,,,,MIC,,>100 µg/mL
O=C(O)c1cnccn1,T6790,,,,MIC,,480 µg/mL
CC(=O)Nc1cccs1,H37Rv,,,,MIC,,>100 µg/mL
COC(=O)/C(=N\N)C(C(=O)C(=O)Nc1nc(=S)[nH][nH]1)c1nc2ccc([N+](=O)[O-])cc2[nH]c1=O,H37Rv,,,resazurin,MIC bound,,>6.25 µg/mL
CCc1ccc([C@H]2C[C@@H](C(F)(F)F)n3ncc(C(=O)NCc4ccc5c(c4)OCO5)c3N2)cc1,H37Rv,MmpL3: Phe255Val,,fluorescence,fold resistance,,1.9
C[C@H]1COc2c(N3CCN(C)CC3)c(F)cc3c(=O)c(C(=O)O)cn1c23,Clinical isolate BRF 27,,,resazurin,MIC,,0.5 µg/mL
NNC(=O)c1ccncc1,Isolate 10,,,,MIC,,2 µg/mL
N/C(COc1cccc(Cl)c1)=N/NC(=O)c1ccncc1,ATCC 35838 (rifampin-resistant),,,,MIC,,12.5 µg/mL
Fc1ccc(-n2ncc(C(c3ccccc3)n3ccnc3)c2-c2ccccc2)c(F)c1,ATCC 35822 (isoniazid-resistant),,,,MIC90,,≥100 µM
C/C(=N\NC(=O)c1ccncc1)c1ccccc1,H37Rv (thiacetazone-resistant),,,,MIC,,>32 µg/mL
CO/N=C1\CN(c2nc3c(cc2F)c(=O)c(C(=O)O)cn3C2CC2)CC1CN,37 strains (drug-resistant),,,,MIC90,,>4 µg/mL
Cc1[nH]n(-c2ccc(S(=O)(=O)O)cc2)c(=O)c1N=Nc1ccc2[nH]c(=S)[nH]c2c1,H37Rv,,,,MIC,,>100 µg/mL
O=C(N/N=C/c1ccccc1F)c1ccncc1,H37Rv,,,,MBC,,0.4 µg/mL
NC[C@H]1O[C@H](O[C@H]2[C@H](O)[C@@H](O[C@H]3O[C@H](CO)[C@@H](O)[C@H](N)[C@H]3O)[C@H](N)C[C@@H]2N)[C@H](O)[C@@H](O)[C@@H]1O,Isolate 1,,,,MIC,,4 µg/mL
Cl.NC(=Nc1ccccc1)c1ccc([N+](=O)[O-])cc1O,H37Rv,,,,MIC,,50 µg/mL
CCOC(=O)c1ccc2nc(-c3ccc(N4CCOCC4)cc3)[nH]c2c1,H37Rv,,,resazurin / fluorescence,MIC,,>100 µM
O=C(NNCc1ccccc1)c1ccncc1,H37Rv (isoniazid-resistant),,,,MIC,,>31.25 µg/mL
CNC(=O)c1n[nH]c(=S)[nH]c1=O,H37Rv,,,BACTEC,MIC bound,,>12.5 µg/mL
CCOC(=O)C(CCN(CC)CC)c1ccccc1,H37Rv,,,,MIC,,100 µg/mL
Cc1cc(N(C)C)c2ccc3ccccc3c2n1,H37Rv,,,resazurin,MIC bound,,>6.25 µg/mL
COc1cc([N+](=O)[O-])cc2cc(-c3cn4ccccc4n3)c(=O)oc12,H37Rv,,,BACTEC,MIC,,>6.25 µg/mL
CCOC(=O)c1ccc2c(c1)nc(-c1ccc(C(F)(F)F)cc1)n2CCN1CCCOC1,H37Rv,,,resazurin / fluorescence,MIC,,100 µM
CCOC(=O)c1c(O)c(Cc2ccccc2)c(=O)n2c1[nH]c1cc(C)c(C)cc12,H37Rv,,,BACTEC,MIC bound,,>12.5 µg/mL
C[C@@H]1CN(c2c(F)c(N)c3c(=O)c(C(=O)O)cn(C4CC4)c3c2F)C[C@H](C)N1,Isolate 16,,,,MIC,,0.13 µg/mL
NC(=O)c1ccc(=O)[nH]c1,H37Rv,,,,MIC,,>100 µg/mL
CC[C@H]1C[C@@H]2CN3CCc4c([nH]c5ccccc45)[C@](C(=O)OC)(C2)[C@H]13,H37Rv,,,BACTEC,inhibition,12.5 µg/mL,-16%
COc1ccc2ncccc2c1,H37Rv,,,,MIC,,>100 µg/mL
CS(=O)(=O)O.Cc1ccc(NCCN2CCOCC2)c2c(=O)c3ccc(Cl)cc3sc12,H37Rv,,,BACTEC,MIC bound,,>12.5 µg/mL
CO[C@H]1/C=C/O[C@@]2(C)Oc3c(C)c(O)c4c(O)c(c5c(c4c3C2=O)NC2(CCN(CC(C)C)CC2)N=5)=NC(=O)/C(C)=C\C=C\[C@H](C)[C@H](O)[C@@H](C)[C@@H](O)[C@@H](C)[C@H](OC(C)=O)[C@@H]1C,H37Rv,,,,MIC,,≤0.015 µg/mL
CCC(O)C(C)(N)CC(N)=O,H37Rv,,,,MIC,,>100 µg/mL
O=c1oc2ccc(Br)cc2cc1-c1cn2cc(Br)ccc2n1,H37Rv,,,BACTEC,inhibition,6.25 µg/mL,0%
CCOC(=O)c1ccc2c(c1)nc(-c1ccc(C(=O)O)cc1)n2CCN1CCCOC1,H37Rv,,,resazurin / fluorescence,EC90,,>100 µM
Clc1ccc(-c2c(C(c3ccccc3)n3ccnc3)cnn2-c2ccc(Cl)cc2)cc1,ATCC 35828 (pyrazinamide-resistant),,,,MIC90,,≥100 µM
CCOC(=O)CC(=O)c1sc(Nc2ccccc2)c(C(N)=O)c1N,H37Rv,,,resazurin,MIC bound,,>6.25 µg/mL
CCCCCC1(C)Cn2cc([N+](=O)[O-])nc2O1,H37Rv-T3 (PA-824-resistant),,,,MIC,,>100 µM
Nc1ccnc2ccccc12,H37Rv,,,,MIC,,>100 µg/mL
Clc1ccc(-n2ncc(C(c3ccccc3)n3ccnc3)c2-c2ccccc2)c(Cl)c1,ATCC 35828 (pyrazinamide-resistant),,,,MIC90,,88.5 µM
CCCCCCC(O)CC[C@H]1CCC[C@@H](C)N1,H37Rv,,,BACTEC,MIC bound,,>12.5 µg/mL
C=C(OP(=O)(O)O)c1c(C)cc(C)c(C)c1C,H37Rv,,,,MIC,,>100 µg/mL
CN(CC1CCN(c2ccc(OC(F)(F)F)cc2)CC1)c1ccc(OC[C@@]2(C)Cn3cc([N+](=O)[O-])nc3O2)cc1,H37Rv,,,,MIC,,0.05 µg/mL
O=C1NC(=O)c2ncccc21,H37Rv,,,,MIC,,>100 µg/mL
COC1=C2CC(C)CC(OC)C(O)C(C)/C=C(\C)C(OC(N)=O)C(OC)/C=C\C=C(/C)C(=O)NC(=C(C=NC(C)(C)C)C1=O)C2=O,H37Rv,,,BACTEC,MIC bound,,≤12.5 µg/mL
O=NN1CCOCC1,H37Rv,,,,MIC,,>100 µg/mL
Fc1ccc(-n2ncc(C(c3ccccc3)n3ccnc3)c2-c2ccccc2)cc1,ATCC 35837 (ethambutol-resistant),,,,MIC50,,≥100 µM
NCCCN1c2ccccc2Sc2ccccc21,STB-825,,,resazurin,MIC,,1 µg/mL
CCC1Cn2cc([N+](=O)[O-])nc2O1,H37Rv-T3-Fgd1 (PA-824-resistant),,,,MIC,,0.8 µM
Nc1cccc(CS(=O)(=O)[O-])c1.[Na+],H37Rv,,,,MIC,,>100 µg/mL
Clc1ccccc1C(c1ccccc1)(c1ccccc1)n1ccnc1,ATCC 35837 (ethambutol-resistant),,,,MIC90,,≥100 µM
COc1cc(Br)cc2cc(-c3cn4ccc(C)cc4n3)c(=O)oc12,H37Rv,,,BACTEC,inhibition,6.25 µg/mL,57%
CC1(C)CCC[C@@]2(C)C3=C(CC[C@H]12)C(O)OC3,H37Rv,,,BACTEC,inhibition,12.5 µg/mL,-4%
CCC(C(=O)O)c1ccc(N)cc1,H37Rv,,,,MIC,,>100 µg/mL
Fc1ccc(-c2c(C(c3ccccc3)n3ccnc3)cnn2-c2ccc(F)cc2F)cc1,ATCC 35820 (streptomycin-resistant),,,,MIC50,,≥100 µM
CCOC(=O)c1ccc2c(c1)nc(-c1ccc(OC)cc1)n2CCN1CCCC1=O,H37Rv,,,resazurin / fluorescence,EC50,,>100 µM
NNC(=O)c1ccncc1,ATCC 27294,,,,MIC90,,1.1 µM
CCCCn1c(-c2cc3ccccc3oc2=O)cs/c1=N\N=C\c1cc(Br)ccc1O,H37Rv,,,,inhibition,12.5 µg/mL,3%
O=[N+]([O-])c1ccc(O)c(N=Cc2ccccc2O)c1,H37Rv,,,,MIC,,>100 µg/mL
OCCN=C1c2ccccc2C2C(c3ccccc31)C1c3ccccc3C(=NCCO)c3ccccc3C21,H37Rv,,,BACTEC,MIC bound,,>12.5 µg/mL
O=C1c2ccccc2C(=O)N1c1ccc(Cc2ccc(N3C(=O)c4ccccc4C3=O)cc2)cc1,H37Rv,,,,MIC,,>100 µg/mL
C=CCn1c(-c2cc3ccccc3oc2=O)cs/c1=N\N=C\c1ccc(Cl)cc1,H37Rv,,,,MIC,,>12.5 µg/mL
CCOC(=O)c1ccc2nc(-c3ccc(C(F)(F)F)cc3)[nH]c2c1,H37Rv,,,resazurin / fluorescence,EC50,,>100 µM
CCN(CC)CC(O)CNC(=O)c1c2nc3c(C(=O)NCC(O)CN(CC)CC)ccc(C)c3oc-2c(C)c(=O)c1N,H37Rv,,,BACTEC,inhibition,12.5 µg/mL,95%
CN(c1ccc(OC(F)(F)F)cc1)C1CCN(C2CCN(c3ccc(OC[C@@]4(C)Cn5cc([N+](=O)[O-])nc5O4)cc3)CC2)CC1,H37Rv,,,,MIC,,0.024 µg/mL
O=C(NNCc1cccc(C(F)(F)F)c1)c1ccncc1,Erdman,,,,MIC,,>6.25 µg/mL
Clc1ccc(-c2c(C(c3ccccc3)n3ccnc3)cnn2-c2ccccc2)cc1,ATCC 35822 (isoniazid-resistant),,,,MIC90,,≥100 µM
CCc1nc(N)nc(N)c1-c1ccc(Cl)cc1,H37Rv,,,resazurin / fluorescence,MIC,,>100 µM
CC(=O)NC[C@H]1CN(c2ccc(N3CCN(c4ccc([N+](=O)[O-])s4)CC3)c(F)c2)C(=O)O1,B-125,,,,MIC,,≤0.125 µg/mL
Cc1c2cc[n+]([O-])cc2c(C)c2c1oc1ccccc12,H37Rv,,VERO,resazurin,MIC,,3.13 µg/mL
Clc1ccccc1-c1c(C(c2ccccc2)n2ccnc2)cnn1-c1ccccc1,ATCC 35828 (pyrazinamide-resistant),,,,MIC90,,89.2 µM
COc1cc(Br)cc2cc(-c3cn4ccccc4n3)c(=O)oc12,H37Rv,,,BACTEC,inhibition,6.25 µg/mL,37%
Cc1cccc(OC/C(N)=N\NC(=O)c2ccncc2)c1,ATCC 35822 (isoniazid-resistant),,,,MIC,,100 µg/mL
C=CCn1c(-c2cc3cc(Br)ccc3oc2=O)cs/c1=N\N=C\c1ccc(Cl)cc1,H37Rv,,,,inhibition,12.5 µg/mL,71%
Cc1ccc(S(=O)(=O)N2CCNCCN(S(=O)(=O)c3ccc(C)cc3)CCN(S(=O)(=O)c3ccc(C)cc3)CC2)cc1,H37Rv,,,resazurin,MIC bound,,>6.25 µg/mL
Cc1c(F)c(N2CCNC(C)C2)cc2c1c(=O)c(C(=O)O)cn2C1CC1,82 strains,,,,MIC50,,1 µg/mL
Cn1c(=O)c2c(nc3n2CC(CF)O3)n(C)c1=O,H37Rv,,,resazurin,MIC bound,,>6.25 µg/mL
N=C(N)SCc1cccc2ccccc12,H37Rv,,,,MIC,,50 µg/mL

8 of the rows above, restated:

{"SMILES": "CCOC(=O)c1ccc2nc(-c3ccc(C(F)(F)F)cc3)[nH]c2c1", "strain": "H37Rv", "read by": "resazurin / fluorescence", "measure": "EC50", "result": ">100 µM"}
{"SMILES": "CN(c1ccc(OC(F)(F)F)cc1)C1CCN(C2CCN(c3ccc(OC[C@@]4(C)Cn5cc([N+](=O)[O-])nc5O4)cc3)CC2)CC1", "strain": "H37Rv", "measure": "MIC", "result": "0.024 µg/mL"}
{"SMILES": "O=C1NC(=O)c2ncccc21", "strain": "H37Rv", "measure": "MIC", "result": ">100 µg/mL"}
{"SMILES": "CCCCCC1(C)Cn2cc([N+](=O)[O-])nc2O1", "strain": "H37Rv-T3 (PA-824-resistant)", "measure": "MIC", "result": ">100 µM"}
{"SMILES": "C[C@]1(COc2ccc(N3CCN(C/C=C/c4c(Cl)cc(Cl)cc4Cl)CC3)cc2)Cn2cc([N+](=O)[O-])nc2O1", "strain": "H37Rv", "measure": "MIC", "result": "0.006 µg/mL"}
{"SMILES": "Clc1ccc(-c2c(C(c3ccccc3)n3ccnc3)cnn2-c2ccccc2)cc1", "strain": "ATCC 35822 (isoniazid-resistant)", "measure": "MIC90", "result": "≥100 µM"}
{"SMILES": "CCOC(=O)c1ccc2c(c1)nc(-c1ccc(OC)cc1)n2CCN1CCCC1=O", "strain": "H37Rv", "read by": "resazurin / fluorescence", "measure": "EC50", "result": ">100 µM"}
{"SMILES": "Nc1ccc(OCC(O)CO)cc1", "strain": "H37Rv", "measure": "MIC", "result": ">100 µg/mL"}